Columns and labels:
[1] = system: E7-specific CD8-positive T lymphocytes; test: IFN-gamma ELISPOT of splenocytes from immunized mice; type: in vivo, C57Bl/6 mice
[2] = system: E7-expressing TC-1 tumors; test: TC-1 tumor regression assay (tumor incidence at day 49); type: in vivo, C57BL/6 mice

TCCATGACGTTCCTGATGCT was tested, and the “augmenting the activity of HspE7 in the ELISPOT assay” value ([1]; CpG oligonucleotide classes A, B, C, data not shown) was “highly active”, the “biological activity of immune stimulant administered in the absence of HspE7” value ([1]; immune stimulant alone) was “did not display this activity” and the “augmenting the activity of HspE7 in the TC-1 tumor regression assay” value ([2]; data not shown) was “highly active”. For the same sequence, the anti-tumor activity ([2]; s.c. on day 7 to mice with established TC-1 tumors, followed to day 49) was “no effect on tumor growth”.
